The assay addresses monoclonal antibody M75 (MAb M75), secreted by hybridoma VU-M75, ATCC HB 11128. The experiment in a line: competition ELISA (competitor against immobilized GST-MN for M75). (An ELISA detects its analyte on a solid surface through an enzyme-linked reagent.)

Drawing on US7910549, this text covers fold more active than the smallest serologically active peptide (molar concentration) and fold more active than the smallest serologically active peptide (weight/volume concentration) for one substance.

Turning to “complete MN/CA IX protein (MN/CA IX+), from Vero cells infected with vaccinia virus carrying the complete coding region of MN/CA IX (from UniProt Q16790 38-459) (enzyme)”, the fold more active than the smallest serologically active peptide (molar concentration) is 1.5e+08 fold and the fold more active than the smallest serologically active peptide (weight/volume concentration) turned out to be 100000 fold.
